# Results deposited as PubChem BioAssay AID624099 (ICCB-Longwood, 2012)
# Purpose: 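Knock-downs relieving repression by E2 of an HPV18 LCR luciferase reporter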 (primary screen)
# System: human C33A cervical carcinoma cells (HPV-negative) stably expressing BPV1 E2 and an HPV18 LCR luciferase reporter
# Reagent: siRNA pool against human genes, 40 nM
# Duration: 72 h
# Measurement: 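Per-well luciferase luminescence, z-scored on each plate against the plate mean and SD with control wells left out, then averaged across three replicate plates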
# Scale: mean z-score and z-score: higher = stronger reporter signal, weaker E2 silencing
# Rule for the call: 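Mean z ≥ 2 together with z ≥ 2 in two or more of the three replicates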
# In all, the deposit lists about 21,000 reagents; shown is an unselected part. Of all reagents, 497 (2.4%) got an active call. 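Higher z means weaker E2 silencing; only reporter increases were scored, and knock-downs that hurt cell survival may mask genuine repressor factors.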
gene,mean z-score,"z-score, replicate A","z-score, replicate B","z-score, replicate C",call
NUDT14,0.24,0.51,0.14,0.07,inactive
BIVM,-0.8,-1.12,-0.69,-0.59,inactive
LMLN,-1.06,-1.22,-1.07,-0.9,inactive
LOC339902,1.14,1.16,0.88,1.38,inactive
DDX46,-0.34,-0.66,0.34,-0.7,inactive
bA395L14.13 (retired record),-0.01,-0.67,0.42,0.24,inactive
ADGRL4,-1.22,-1.41,-1.16,-1.1,inactive
CBX5,0.41,0.51,0.48,0.23,inactive
OR2F1,-0.23,-0.37,0.08,-0.4,inactive
MYF6,-0.87,-0.85,-0.79,-0.96,inactive
HMGN4,-0.75,-0.31,-1.02,-0.92,inactive
GAGE7,-1.26,-1.25,-1.36,-1.17,inactive
TAF11L4,0.28,0.45,-0.14,0.54,inactive
LRRC20,-0.54,-0.55,-0.36,-0.71,inactive
RNF39,0.47,0.26,0.56,0.58,inactive
F5,-1.32,-0.97,-1.4,-1.58,inactive
MYC,0.48,0.41,0.65,0.36,inactive

The list goes on; the last 3 above are carried over.
gene,mean z-score,"z-score, replicate A","z-score, replicate B","z-score, replicate C",call
RNF39,0.47,0.26,0.56,0.58,inactive
F5,-1.32,-0.97,-1.4,-1.58,inactive
MYC,0.48,0.41,0.65,0.36,inactive
FPR2,1.03,1.18,0.8,1.12,inactive
USP5,0.64,0.61,0.46,0.83,inactive
CCDC66,0.46,0.49,0.48,0.4,inactive
PDF,0.32,0.45,0.42,0.08,inactive
SEMA6C,-0.08,-0.21,0.06,-0.1,inactive
SMIM29,-0.54,-0.88,-0.34,-0.39,inactive
LOC390342 (retired record),0.73,0.7,0.38,1.11,inactive
GRWD1,0.55,0.56,0.56,0.52,inactive
CCNQP1,-0.39,-0.29,-0.52,-0.35,inactive
WDR53,-0.09,0.18,-0.16,-0.29,inactive
LOC400161 (retired record),-0.81,-0.66,-0.75,-1.01,inactive
MTMR9,0.35,0.18,0.6,0.27,inactive
NIM1K,1.42,1.57,1.1,1.6,inactive
EIF5AL1,-0.84,-0.84,-0.87,-0.82,inactive
SHCBP1,0.02,-0.21,0.1,0.18,inactive
CADPS,-1,-1.13,-0.94,-0.92,inactive
EXOSC4,-0.97,-1.17,-0.92,-0.83,inactive
FADS6,0.9,3.23,-0.14,-0.4,inactive
KDM4B,-0.78,-0.62,-0.96,-0.74,inactive
PPP2CB,0.05,0.27,0.08,-0.19,inactive
MAPK12,-2.05,-1.99,-2.14,-2.03,inactive
SLC16A14,0.21,0.09,-0.13,0.68,inactive
